PubChem BioAssay AID1259414, Drosophila RNAi Screening Center, 2018

Assay: 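Host factors increasing or decreasing Wolbachia levels in cultured fly cells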 (primary screen)
Cells: Drosophila JW18 cells infected with Wolbachia
Knock-down reagent: long dsRNA against Drosophila genes, 0.25 µg dsRNA per well of a 384-well plate
Time to read-out: 5 days
Treatment: cells persistently infected with Wolbachia before knock-down; no added drug
Measured: 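Imaged fluorescence in situ signal for Wolbachia 23S rRNA per DAPI-counted host cell, given as a robust z-score within each plate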
Scale: Wolbachia per cell robust z: higher = more Wolbachia per host cell than the plate typical
Hit rule: 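Hit when robust z is 1.5 or more, or -1.5 or less, in at least two of three replicates; excludes dsRNAs with several or no targets, genes not expressed in JW18 and well A1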
The deposit covers about 24,000 reagents; this is an unselected part of those with a known target gene and a result. Over the whole deposit, about 1,210 (5%) got an active call. 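Inactive calls also include excluded dsRNAs with several or no targets, genes unexpressed in JW18, and well A1, regardless of score.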 Reagents against one gene are numbered here. Names joined by + are all predicted targets of the reagent. Reagent sequences are not shown.

Target gene | dsRNA no. | Wolbachia per cell robust z, rep 1 | Wolbachia per cell robust z, rep 2 | Wolbachia per cell robust z, rep 3 | Call
dnk | 1 | -5.54 | -0.633 | -0.249 | inactive
dnk | 2 | -1.21 | 0.495 | 0.454 | inactive
dnk | 3 | 0.433 | 1.17 | -0.867 | inactive
CG12065 | 1 | 0.831 | 0.467 | -0.468 | inactive
CG12065 | 2 | 0.555 | -2.93 | 0.555 | inactive
pie | 1 | 0.323 | -0.823 | -0.0181 | inactive
Coq8 | 1 | 1.02 | 0.414 | -0.363 | inactive
CG3032 | 1 | 0.403 | -1.18 | -0.464 | inactive
CG3032 | 2 | 0.45 | 0.538 | -0.174 | inactive
CG34355 | 1 | -0.835 | 0.0275 | 0.747 | inactive
CG34355 | 2 | -0.0704 | 0.0834 | -0.419 | inactive
CG34355 | 3 | 0.108 | -1.77 | 0.504 | inactive
CG34355 | 4 | 0.359 | -0.83 | 0.689 | inactive
CG17349 | 1 | 1.34 | 0.434 | 0.79 | inactive
CG31678 | 1 | 0.505 | 0.561 | 0.667 | inactive
CG31678 | 2 | -0.195 | 0.26 | -0.222 | inactive
CG6066 | 1 | -4.61 | 0.448 | -3.65 | active
CG6066 | 2 | 0.589 | 0.379 | 0.485 | inactive
CG6066 | 3 | 0.401 | -0.952 | 0.578 | inactive
CG6066 | 4 | -1.8 | 0.447 | 0.517 | inactive
CG2528 | 1 | -0.634 | -0.663 | -2.4 | inactive
Sec10 | 1 | 0.965 | 0.227 | 7.18 | inactive
Sec10 | 2 | 0.591 | 1.55 | 0.916 | inactive
Pdk | 1 | -1.07 | -7.4 | 0.532 | inactive
Gyc89Db | 1 | 0.773 | 0.264 | 0.45 | inactive
CG9877 | 1 | 0.989 | 1.09 | -0.688 | inactive
CG9877 | 2 | 0.734 | 1.19 | -1.26 | inactive
dimm | 1 | 0.00812 | 1.04 | 0.00155 | inactive
mTTF | 1 | -0.71 | -1.12 | 0.27 | inactive
ncm | 1 | 7.95 | -4.16 | 10.1 | active
ncm | 2 | 2.37 | 1.88 | -4.51 | active
CG42288 | 1 | -0.319 | -0.566 | 0.107 | inactive
CG42288 | 2 | -0.816 | 0.869 | -1.22 | inactive
CG42288 | 3 | -0.606 | 0.409 | 0.405 | inactive
stg1 + CG11566 (retired record) | 1 | 0.972 | 0.83 | 0.823 | inactive
stg1 + CG11566 (retired record) | 2 | -1.32 | -1.69 | -1.11 | inactive
stg1 + CG11566 (retired record) | 3 | 0.624 | 0.566 | 0.418 | inactive
CG2145 | 1 | -1.94 | -0.428 | -0.768 | inactive
CG2145 | 2 | -0.766 | -1.13 | -0.284 | inactive
nopo | 1 | -1.16 | -1.15 | -2.65 | inactive
CG31249 | 1 | 0.946 | 0.455 | 0.871 | inactive
CG31454 | 1 | -0.676 | 0.125 | 0.619 | inactive
CG31454 | 2 | -1.17 | -4.36 | -1.13 | inactive
CG31454 | 3 | -0.0573 | 0.603 | -0.843 | inactive
net | 1 | -3.57 | 0.19 | 1.17 | inactive
CG12078 | 1 | 0.376 | 1.52 | 0.673 | inactive
pea | 1 | 0.962 | 3.03 | 2.67 | active
pea | 2 | -1.71 | 1.52 | 1.09 | inactive
CG8160 | 1 | -4.86 | -3.43 | -3.58 | inactive
CG8160 | 2 | 0.0748 | 1.34 | 0.847 | inactive
CG8160 | 3 | 0.632 | -0.0688 | 0.832 | inactive
Gagr | 1 | -0.311 | -0.0108 | -0.107 | inactive
CG10730 | 1 | 1.64 | -0.962 | 0.655 | inactive
CG10730 | 2 | -0.218 | -0.297 | -1.77 | inactive
robl22E | 1 | 0.559 | 0.589 | 0.0916 | inactive
CG5139 | 1 | -0.401 | -6.2 | 0.807 | inactive
CG5139 | 2 | 0.0654 | -0.364 | -0.112 | inactive
comr | 1 | 0.331 | 0.542 | 0.214 | inactive
CG34300 | 1 | -0.678 | 0.549 | -0.0765 | inactive
Treh | 1 | 0.0387 | 1.07 | 0.196 | inactive
Treh | 2 | 0.533 | -0.544 | 0.268 | inactive
CG13204 | 1 | 0.186 | 0.932 | 1.35 | inactive
CG13204 | 2 | -0.0511 | -0.814 | 1 | inactive
O-fut2 | 1 | -1.34 | 0.431 | 0.857 | inactive
CG5577 | 1 | 0.118 | 0.314 | 1.11 | inactive
CG5577 | 2 | -0.557 | -0.195 | 0.287 | inactive
Tob | 1 | 0.277 | -0.418 | -1.19 | inactive
CG9394 | 1 | 0.469 | -4.58 | 0.566 | inactive
CG31871 | 1 | -0.672 | -2.77 | -0.476 | inactive
CG31871 | 2 | -1.61 | -1.06 | 0.35 | inactive
CG31871 | 3 | 0.418 | 0.0618 | 0.617 | inactive
Ufsp2 | 1 | 0.133 | 0.637 | -0.158 | inactive
CatB | 1 | -2.51 | -3.34 | -3.01 | inactive
CatB | 2 | 1.19 | 1.37 | 0.963 | inactive
TwdlL | 1 | 0.159 | -0.778 | -0.275 | inactive
TwdlL | 2 | 0.163 | 0.593 | -1.1 | inactive
CG2076 | 1 | 0.276 | -1.79 | -5.77 | inactive
CG2076 | 2 | -1.97 | 0.492 | 1.23 | inactive
CG15756 | 1 | -0.231 | -1.34 | 0.0851 | inactive
CG15756 | 2 | 0.308 | 2.09 | -0.447 | inactive
Gpxl | 1 | 0.827 | -3.18 | 0.359 | inactive
sub + Ir54a | 1 | 0.162 | 1.29 | -1.94 | inactive
Lk6 | 1 | -2.12 | 0.0764 | 0.147 | inactive
Lk6 | 2 | 0.0906 | -0.514 | -1.07 | inactive
Lk6 | 3 | -2.01 | -0.182 | -2.14 | active
Apt1 | 1 | -0.305 | 0.405 | -0.663 | inactive
Pex6 + Hao | 1 | -0.278 | -0.0219 | -0.669 | inactive

A portion taken from the entries so far, for reference:
Target gene | dsRNA no. | Wolbachia per cell robust z, rep 1 | Wolbachia per cell robust z, rep 2 | Wolbachia per cell robust z, rep 3 | Call
CG31678 | 2 | -0.195 | 0.26 | -0.222 | inactive
CG6066 | 1 | -4.61 | 0.448 | -3.65 | active
CG6066 | 2 | 0.589 | 0.379 | 0.485 | inactive
CG6066 | 3 | 0.401 | -0.952 | 0.578 | inactive
CG6066 | 4 | -1.8 | 0.447 | 0.517 | inactive
CG2528 | 1 | -0.634 | -0.663 | -2.4 | inactive
Sec10 | 1 | 0.965 | 0.227 | 7.18 | inactive
Sec10 | 2 | 0.591 | 1.55 | 0.916 | inactive
Pdk | 1 | -1.07 | -7.4 | 0.532 | inactive
Gyc89Db | 1 | 0.773 | 0.264 | 0.45 | inactive
CG9877 | 1 | 0.989 | 1.09 | -0.688 | inactive
CG9877 | 2 | 0.734 | 1.19 | -1.26 | inactive
dimm | 1 | 0.00812 | 1.04 | 0.00155 | inactive
